From PMC7949102 (The Journal of Biological Chemistry, 2021)

System: NC(=O)c1ccc[n+]([C@@H]2O[C@H](COP(=O)(O)OP(=O)(O)OC[C@H]3O[C@@H](n4cnc5c(N)ncnc54)[C@H](O)[C@@H]3O)[C@@H](O)[C@H]2O)c1
Test: purified protein
Conditions: pH 7.5; 23.0 °C

In the case of “Lart1 (Legionella pneumophila subsp. pneumophila str. Philadelphia 1)”, the Km is reported as 1.57 (95% CI 1.26, 1.95) μM.
